Measurements reported in US6284456, “Transcriptional coactivator that interacts with Tat protein and regulates its binding to TAR RNA, methods for modulating Tat transactivation, and uses therefor” (The Salk Institute for Biological Studies, dated 2001).

Target: GST-Tat-1 C22G ([…]) (HIV-1)
Assay: gel mobility shift with TAR-1 RNA, 400 ng GST-Tat and 750 ng GST-cyclin T1

B1: GST-cyclin T1 (other)
chain: MEGERKNNNKRWYFTREQLENSPSRRFGVDPDKELSYRQQAANLLQDMGQRLNVSQLTINTAIVYMHRFYMIQSFTQFPGNSVAPAALFLAAKVEEQPKKLEHVIKVAHTCLHPQESLPDTRSEAYLQQVQDLVILESIILQTLGFELTIDHPHTHVVKCTQLVRASKDLAQTSYFMATNSLHLTTFSLQYTPPVVACVCIHLACKWSNWEIPVSTDGKHWWEYVDATVTLELLDELTHEFLQILEKTPNRLKRIWNWRACEAAKKTKADDRGTDEKTSEQTILNMISQSSSDTTIAGLMSMSTSTTSAVPSLPVSEESSSNLTSVEMLPGKRWLSSQPSFKLEPTQGHRTSENLALTGVDHSLPQDGSNAFISQKQNSKSVPSAKVSLKEYRAKHAEELAAQKRQLENMEANVKSQYAYAAQNLLSHHDSHSSVILKMPIEGSENPERPFLEKADKTALKMRIPVAGGDKAASSKPEEIKMRIKVHAAADKHNSVEDSVTKSREHKEKHKTHPSNHHHHHNHHSHKHSHSQLPVGTGNKRPGDPKHSSQTSNLAHKTYSLSSSFSSSSSTRKRGPSEETGGAVFDHPAKIAKSTKSSSLNFSFPSLPTMGQMPGHSSDTSGLSFSQPSCKTRVPHSKLDKGPTGANGHNTTQTIDYQDTVNMLHSLLSAQGVQPTQPTAFEFVRPYSDYLNPRSGGISSRSGNTDKPRPPPLPSEPPPPLPPLPK
B1: no binding.
